Experimental data as given in publication PMC9104152, “Phosphoproteomics Unravel HBV Triggered Rewiring of Host Phosphosignaling Events” (International Journal of Molecular Sciences, 2022).

System: HepG2-NTCP cells
Experiment: TMT-based phosphoproteome profiling of HBV-infected vs mock HepG2-NTCP (HBV/mock ratio)
Design: species or system human
Details: phosphosite abundance ratio of host protein, HBV-infected vs mock HepG2-NTCP, 7dpi, sheet Up-regulated

B1: Q9UQ80 1xPhospho [T/S] (protein, UniProt Q9UQ80 2-394, looked up)
Proliferation-associated …: SGEDEQQEQTIAEDLVVTKYKMGGDIANRVLRSLVEASSSGVSVLSLCEKGDAMIMEETGKIFKKEKEMKKGIAFPTSISVNNCVCHFSPLKSDQDYILKEGDLVKIDLGVHVDGFIANVAHTFVVDVAQGTQVTGRKADVIKAAHLCAEAALRLVKPGNQNTQVTEAWNKVAHSFNCTPIEGMLSHQLKQHVIDGEKTIIQNPTDQQKKDHEKAEFEVHEVYAVDVLVSSGEGKAKDAGQRTTIYKRDPSKQYGLKMKTSRAFFSEVERRFDAMPFTLRAFEDEKKARMGVVECAKHELLQPFNVLYEKEGEFVAQFKFTVLLMPNGPMRITSGPFEPDLYKSEMEVQDAELKALLQSSASRKTQKKKKKKASKTAENATSGETLEENEAGD
modifications: phosphorylated
HBV/mock: 1.397

B2: Q53EL6 1xPhospho [S457(100)] (protein, UniProt Q53EL6 1-469, looked up)
Programmed cell death protein …: MDVENEQILNVNPADPDNLSDSLFSGDEENAGTEEIKNEINGNWISASSINEARINAKAKRRLRKNSSRDSGRGDSVSDSGSDALRSGLTVPTSPKGRLLDRRSRSGKGRGLPKKGGAGGKGVWGTPGQVYDVEEVDVKDPNYDDDQENCVYETVVLPLDERAFEKTLTPIIQEYFEHGDTNEVAEMLRDLNLGEMKSGVPVLAVSLALEGKASHREMTSKLLSDLCGTVMSTTDVEKSFDKLLKDLPELALDTPRAPQLVGQFIARAVGDGILCNTYIDSYKGTVDCVQARAALDKATVLLSMSKGGKRKDSVWGSGGGQQSVNHLVKEIDMLLKEYLLSGDISEAEHCLKELEVPHFHHELVYEAIIMVLESTGESTFKMILDLLKSLWKSSTITVDQMKRGYERIYNEIPDINLDVPHSYSVLERFVEECFQAGIISKQLRDLCPSRGRKRFVSEGDGGRLKPESY
modifications: phospho S457
HBV/mock: 1.3941

B3: Q9NTI5 2xPhospho [S/Y/T] (protein, UniProt Q9NTI5 1-1447, looked up)
Sister chromatid cohesion …: MAHSKTRTNDGKITYPPGVKEISDKISKEEMVRRLKMVVKTFMDMDQDSEEEKELYLNLALHLASDFFLKHPDKDVRLLVACCLADIFRIYAPEAPYTSPDKLKDIFMFITRQLKGLEDTKSPQFNRYFYLLENIAWVKSYNICFELEDSNEIFTQLYRTLFSVINNGHNQKVHMHMVDLMSSIICEGDTVSQELLDTVLVNLVPAHKNLNKQAYDLAKALLKRTAQAIEPYITNFFNQVLMLGKTSISDLSEHVFDLILELYNIDSHLLLSVLPQLEFKLKSNDNEERLQVVKLLAKMFGAKDSELASQNKPLWQCYLGRFNDIHVPIRLECVKFASHCLMNHPDLAKDLTEYLKVRSHDPEEAIRHDVIVSIVTAAKKDILLVNDHLLNFVRERTLDKRWRVRKEAMMGLAQIYKKYALQSAAGKDAAKQIAWIKDKLLHIYYQNSIDDRLLVERIFAQYMVPHNLETTERMKCLYYLYATLDLNAVKALNEMWKCQNLLRHQVKDLLDLIKQPKTDASVKAIFSKVMVITRNLPDPGKAQDFMKKFTQVLEDDEKIRKQLEVLVSPTCSCKQAEGCVREITKKLGNPKQPTNPFLEMIKFLLERIAPVHIDTESISALIKQVNKSIDGTADDEDEGVPTDQAIRAGLELLKVLSFTHPISFHSAETFESLLACLKMDDEKVAEAALQIFKNTGSKIEEDFPHIRSALLPVLHHKSKKGPPRQAKYAIHCIHAIFSSKETQFAQIFEPLHKSLDPSNLEHLITPLVTIGHIALLAPDQFAAPLKSLVATFIVKDLLMNDRLPGKKTTKLWVPDEEVSPETMVKIQAIKMMVRWLLGMKNNHSKSGTSTLRLLTTILHSDGDLTEQGKISKPDMSRLRLAAGSAIVKLAQEPCYHEIITLEQYQLCALAINDECYQVRQVFAQKLHKGLSRLRLPLEYMAICALCAKDPVKERRAHARQCLVKNINVRREYLKQHAAVSEKLLSLLPEYVVPYTIHLLAHDPDYVKVQDIEQLKDVKECLWFVLEILMAKNENNSHAFIRKMVENIKQTKDAQGPDDAKMNEKLYTVCDVAMNIIMSKSTTYSLESPKDPVLPARFFTQPDKNFSNTKNYLPPEMKSFFTPGKPKTTNVLGAVNKPLSSAGKQSQTKSSRMETVSNASSSSNPSSPGRIKGRLDSSEMDHSENEDYTMSSPLPGKKSDKRDDSDLVRSELEKPRGRKKTPVTEQEEKLGMDDLTKLVQEQKPKGSQRSRKRGHTASESDEQQWPEEKRLKEDILENEDEQNSPPKKGKRGRPPKPLGGGTPKEEPTMKTSKKGSKKKSGPPAPEEEEEEERQSGNTEQKSKSKQHRVSRRAQQRAESPESSAIESTQSTPQKGRGRPSKTPSPSQPKKNVRVGRSKQAATKENDSSEEVDVFQGSSPVDDIPQEETEEEEVSTVNVRRRSAKRERR
modifications: 2x phospho
HBV/mock: 1.718

B4: Q93100 2xPhospho [S/T] (protein, UniProt Q93100 2-1093, looked up)
Phosphorylase b kinase …: AGAAGLTAEVSWKVLERRARTKRSGSVYEPLKSINLPRPDNETLWDKLDHYYRIVKSTLLLYQSPTTGLFPTKTCGGDQKAKIQDSLYCAAGAWALALAYRRIDDDKGRTHELEHSAIKCMRGILYCYMRQADKVQQFKQDPRPTTCLHSVFNVHTGDELLSYEEYGHLQINAVSLYLLYLVEMISSGLQIIYNTDEVSFIQNLVFCVERVYRVPDFGVWERGSKYNNGSTELHSSSVGLAKAALEAINGFNLFGNQGCSWSVIFVDLDAHNRNRQTLCSLLPRESRSHNTDAALLPCISYPAFALDDEVLFSQTLDKVVRKLKGKYGFKRFLRDGYRTSLEDPNRCYYKPAEIKLFDGIECEFPIFFLYMMIDGVFRGNPKQVQEYQDLLTPVLHHTTEGYPVVPKYYYVPADFVEYEKNNPGSQKRFPSNCGRDGKLFLWGQALYIIAKLLADELISPKDIDPVQRYVPLKDQRNVSMRFSNQGPLENDLVVHVALIAESQRLQVFLNTYGIQTQTPQQVEPIQIWPQQELVKAYLQLGINEKLGLSGRPDRPIGCLGTSKIYRILGKTVVCYPIIFDLSDFYMSQDVFLLIDDIKNALQFIKQYWKMHGRPLFLVLIREDNIRGSRFNPILDMLAALKKGIIGGVKVHVDRLQTLISGAVVEQLDFLRISDTEELPEFKSFEELEPPKHSKVKRQSSTPSAPELGQQPDVNISEWKDKPTHEILQKLNDCSCLASQAILLGILLKREGPNFITKEGTVSDHIERVYRRAGSQKLWLAVRYGAAFTQKFSSSIAPHITTFLVHGKQVTLGAFGHEEEVISNPLSPRVIQNIIYYKCNTHDEREAVIQQELVIHIGWIISNNPELFSGMLKIRIGWIIHAMEYELQIRGGDKPALDLYQLSPSEVKQLLLDILQPQQNGRCWLNRRQIDGSLNRTPTGFYDRVWQILERTPNGIIVAGKHLPQQPTLSDMTMYEMNFSLLVEDTLGNIDQPQYRQIVVELLMVVSIVLERNPELEFQDKVDLDRLVKEAFNEFQKDQSRLKEIEKQDDMTSFYNTPPLGKRGTCSYLTKAVMNLLLEGEVKPNNDDPCLIS
modifications: diphosphorylated
HBV/mock: 1.536

B5: A1L390 2xPhospho [S1183(98.5); S/T] (protein, UniProt A1L390 1-1219, looked up)
Pleckstrin homology …: MPVSTSLHQDGSQERPVSLTSTTSSSGSSCDSRSAMEEPSSSEAPAKNGAGSLRSRHLPNSNNNSSSWLNVKGPLSPFNSRAAAGPAHHKLSYLGRVVREIVETERMYVQDLRSIVEDYLLKIIDTPGLLKPEQVSALFGNIENIYALNSQLLRDLDSCNSDPVAVASCFVERSQEFDIYTQYCNNYPNSVAALTECMRDKQQAKFFRDRQELLQHSLPLGSYLLKPVQRILKYHLLLQEIAKHFDEEEDGFEVVEDAIDTMTCVAWYINDMKRRHEHAVRLQEIQSLLINWKGPDLTTYGELVLEGTFRVHRVRNERTFFLFDKTLLITKKRGDHFVYKGNIPCSSLMLIESTRDSLCFTVTHYKHSKQQYSIQAKTVEEKRNWTHHIKRLILENHHATIPQKAKEAILEMDSYYPNRYRCSPERLKKAWSSQDEVSTNVRQGRRQSEPTKHLLRQLNEKARAAGMKGKGRRESESSRSSRRPSGRSPTSTEKRMSFESISSLPEVEPDPEAGSEQEVFSAVEGPSAEETPSDTESPEVLETQLDAHQGLLGMDPPGDMVDFVAAESTEDLKALSSEEEEEMGGAAQEPESLLPPSVLDQASVIAERFVSSFSRRSSVAQEDSKSSGFGSPRLVSRSSSVLSLEGSEKGLARHGSATDSLSCQLSPEVDISVGVATEDSPSVNGMEPPSPGCPVEPDRSSCKKKESALSTRDRLLLDKIKSYYENAEHHDAGFSVRRRESLSYIPKGLVRNSISRFNSLPRPDPEPVPPVGSKRQVGSRPTSWALFELPGPSQAVKGDPPPISDAEFRPSSEIVKIWEGMESSGGSPGKGPGQGQANGFDLHEPLFILEEHELGAITEESATASPESSSPTEGRSPAHLARELKELVKELSSSTQGELVAPLHPRIVQLSHVMDSHVSERVKNKVYQLARQYSLRIKSNKPVMARPPLQWEKVAPERDGKSPTVPCLQEEAGEPLGGKGKRKPVLSLFDYEQLMAQEHSPPKPSSAGEMSPQRFFFNPSAVSQRTTSPGGRPSARSPLSPTETFSWPDVRELCSKYASRDEARRAGGGRPRGPPVNRSHSVPENMVEPPLSGRVGRCRSLSTKRGRGGGEAAQSPGPLPQSKPDGGETLYVTADLTLEDNRRVIVMEKGPLPSPTAGLEESSGQGPSSPVALLGQVQDFQQSAECQPKEEGSRDPADPSQQGRVRNLREKFQALNSVG
modifications: diphosphorylated incl. S1183
HBV/mock: 1.314

B6: Q9BUI4 2xPhospho [S204(100); S205(100)] (protein, UniProt Q9BUI4 1-534, looked up)
DNA-directed RNA polymerase …: MTQAEIKLCSLLLQEHFGEIVEKIGVHLIRTGSQPLRVIAHDTGTSLDQVKKALCVLVQHNLVSYQVHKRGVVEYEAQCSRVLRMLRYPRYIYTTKTLYSDTGELIVEELLLNGKLTMSAVVKKVADRLTETMEDGKTMDYAEVSNTFVRLADTHFVQRCPSVPTTENSDPGPPPPAPTLVINEKDMYLVPKLSLIGKGKRRRSSDEDAAGEPKAKRPKYTTDNKEPIPDDGIYWQANLDRFHQHFRDQAIVSAVANRMDQTSSEIVRTMLRMSEITTSSSAPFTQPLSSNEIFRSLPVGYNISKQVLDQYLTLLADDPLEFVGKSGDSGGGMYVINLHKALASLATATLESVVQERFGSRCARIFRLVLQKKHIEQKQVEDFAMIPAKEAKDMLYKMLSENFMSLQEIPKTPDHAPSRTFYLYTVNILSAARMLLHRCYKSIANLIERRQFETKENKRLLEKSQRVEAIIASMQATGAEEAQLQEIEEMITAPERQQLETLKRNVNKLDASEIQVDETIFLLESYIECTMKRQ
modifications: phospho S204, S205
HBV/mock: 1.65

B7: Q9NVU0 1xPhospho [S162(100)] (protein, UniProt Q9NVU0 1-708, looked up)
DNA-directed RNA polymerase …: MANEEDDPVVQEIDVYLAKSLAEKLYLFQYPVRPASMTYDDIPHLSAKIKPKQQKVELEMAIDTLNPNYCRSKGEQIALNVDGACADETSTYSSKLMDKQTFCSSQTTSNTSRYAAALYRQGELHLTPLHGILQLRPSFSYLDKADAKHREREAANEAGDSSQDEAEDDVKQITVRFSRPESEQARQRRVQSYEFLQKKHAEEPWVHLHYYGLRDSRSEHERQYLLCPGSSGVENTELVKSPSEYLMMLMPPSQEEEKDKPVAPSNVLSMAQLRTLPLADQIKILMKNVKVMPFANLMSLLGPSIDSVAVLRGIQKVAMLVQGNWVVKSDILYPKDSSSPHSGVPAEVLCRGRDFVMWKFTQSRWVVRKEVATVTKLCAEDVKDFLEHMAVVRINKGWEFILPYDGEFIKKHPDVVQRQHMLWTGIQAKLEKVYNLVKETMPKKPDAQSGPAGLVCGDQRIQVAKTKAQQNHALLERELQRRKEQLRVPAVPPGVRIKEEPVSEEGEEDEEQEAEEEPMDTSPSGLHSKLANGLPLGRAAGTDSFNGHPPQGCASTPVARELKAFVEATFQRQFVLTLSELKRLFNLHLASLPPGHTLFSGISDRMLQDTVLAAGCKQILVPFPPQTAASPDEQKVFALWESGDMSDQHRQVLLEIFSKNYRVRRNMIQSRLTQECGEDLSKQEVDKVLKDCCVSYGGMWYLKGTVQS
modifications: phosphorylated S162
HBV/mock: 1.324
